Measured values from several laboratories, pooled; numbers as filed in NIAID ChemDB.

Common to all: tests in culture; species: HIV-1; cells: MT-4; read-out: EC50

ECn is the concentration giving n% inhibition of infection, replication or growth.

structure | strain | changes | method | setting | value
Cc1cc(C)c(Oc2ccc(N)c(NC3CCN(Cc4ccc(S(N)(=O)=O)cc4)CC3)n2)c(C)c1 | IIIB | Resistant strain (K103N + Y181C) | MTT |  | 1.5 µM
Cc1ccnc2c1NC(=O)c1cccnc1N2C1CC1 | IIIB |  | cytopathic effect / MTT |  | 0.03 µM
Cc1cc(Br)cc(C)c1Oc1ncc(NC(=O)C(F)(F)F)c(Nc2ccc(C#N)cc2)n1 | RES056 |  | MTT |  | 10.62 µM
COC(=O)N[C@@H](Cc1c[nH]c2ccccc12)C(=O)NCCCC[C@@H](CO)N(CC(C)C)S(=O)(=O)c1ccc(N)cc1 | RF2802 (PR-V82F I84V) | PR-V82F I84V | cytopathic effect / MTT |  | 0.122 µM
CN1C(=O)Nc2cscc2S1(=O)=O | IIIB |  | cytopathic effect / MTT |  | >99.8 µM
CCN(CC)C(=O)Oc1nsnc1-c1c(Cl)cccc1Cl | IIIB |  | cytopathic effect |  | 0.245 µM
COc1ccc(CN2C(=O)Nc3cscc3S2(=O)=O)c(OC)c1 | IIIB |  | cytopathic effect / MTT |  | >705.4 µM
Cc1nn(-c2ccccc2)c2n[nH]nc12 |  |  | cytopathic effect / MTT |  | >200 µM
O=C(CN1CCN(c2cc3c(cc2F)c(=O)c(C(=O)O)cn3C2CC2)CC1)OC[C@@H]1CC[C@H](n2cnc3c(=O)[nH]cnc32)O1 | IIIB |  | cytopathic effect / MTT |  | 3.12 µM
Cc1nn(-c2ccccc2)c2nn([C@@H]3O[C@H](CO)[C@@H](O)[C@H]3O)nc12 |  |  | cytopathic effect / MTT |  | >145 µM
Cc1ccc(C(=O)Nc2ccc(S(=O)(=O)O)c3cc(S(=O)(=O)O)cc(S(=O)(=O)O)c23)cc1NC(=O)c1cccc(NC(=O)Nc2cccc(C(=O)Nc3cc(C(=O)Nc4ccc(S(=O)(=O)O)c5cc(S(=O)(=O)O)cc(S(=O)(=O)O)c45)ccc3C)c2)c1 | HTLV-III |  | plaque count |  | <25 µg/mL
Cc1cc(C#N)cc(C)c1Oc1ccc(N)c(NC2CCN(Cc3ccc(S(C)(=O)=O)cc3)CC2)n1 | IIIB | Resistant strain (K103N + Y181C) | MTT |  | 0.99 µM
O=C1Nc2cscc2S(=O)(=O)N1c1ccc(Cl)cc1 | IIIB |  | cytopathic effect / MTT |  | >266.5 µM
COc1c(N2CCN(CC(=O)OC[C@@H]3CC[C@H](n4cnc5c(=O)[nH]cnc54)O3)CC2)c(F)cc2c(=O)c(C(=O)O)cn(C3CC3)c12 | IIIB |  | cytopathic effect / MTT |  | 0.82 µM
CC(=O)Nc1cnc(Oc2c(C)cc(Br)cc2C)nc1Nc1ccc(C#N)cc1 | RES056 |  | MTT |  | >147.6 µM
CCN1C(=O)N(Cc2ccc(OC)cc2OC)S(=O)(=O)c2cscc21 | IIIB |  | cytopathic effect / MTT |  | >255.2 µM
CC(=O)Nc1cnc(Oc2c(Cl)cccc2Cl)nc1Nc1ccc(C#N)cc1 | RES056 |  | MTT |  | >193.7 µM
C=C[C@@]1(CO)CO[C@H](n2cc(C)c(=O)[nH]c2=O)C1 |  |  |  |  | 60.2 µg/mL
O=c1ccn([C@H]2C[C@H](F)[C@@H](CO)O2)c(=O)[nH]1 | IIIB |  | cytopathic effect / trypan blue |  | 0.275 µM
Nc1nc2c(ncn2[C@H]2CO[C@@H](CO)O2)c(=O)[nH]1 | IIIB |  |  |  | 0.05 µM
O=C1Nc2cscc2S(=O)(=O)N1c1cccc(Cl)c1 | IIIB |  | cytopathic effect / MTT |  | >110.7 µM
CCCN(C)C(=O)Oc1nsnc1-c1c(Cl)cccc1Cl | HE |  | cytopathic effect | clinical isolate | 0.035 µM
CC(C)(C)NC(=O)[C@@H]1CN(Cc2cccnc2)CCN1C[C@@H](O)C[C@@H](Cc1ccccc1)C(=O)N[C@H]1c2ccccc2C[C@H]1O | RF2802 (PR-V82F I84V) | PR-V82F I84V | cytopathic effect / MTT |  | 0.134 µM
Cc1cc(C)c(Nc2ccc([N+](=O)[O-])c(NC3CCN(Cc4ccncc4)CC3)n2)c(C)c1 | IIIB |  | MTT |  | 0.01 µg/mL
CN1C(=O)N(c2cccc(Cl)c2)S(=O)(=O)c2cscc21 | IIIB |  | cytopathic effect / MTT |  | >483.6 µM
Cc1cn([C@@H]2C=CC3(CO)C[C@@H]23)c(=O)[nH]c1=O | IIIB |  |  |  | 6.76 µg/mL
CCOC(=O)CNC(=O)n1nnc2c(C)nn(-c3ccccc3)c21 |  |  | cytopathic effect / MTT |  | >122 µM
Cc1cn([C@H]2C[C@H](N=[N+]=[N-])[C@@H](CO)O2)c(=O)[nH]c1=O | IIIB |  | cytopathic effect / MTT |  | >0.0007 µM
Cc1ccnc2c1NC(=O)c1cccnc1N2C1CC1 |  | RT-L74V |  |  | <0.1 µM
N#Cc1ccc(Nc2nc(Oc3c(Br)cc(Br)cc3Br)ncc2NC(=O)C(F)(F)F)cc1 | RES056 |  | MTT |  | 2.95 µM
Cc1cn([C@H]2C=C[C@@H](CO)O2)c(=O)[nH]c1=O | IIIB WT |  | cytopathic effect / MTT |  | 1 µM
Cc1cc(C#N)cc(C)c1Oc1ccnc(NC2CCN(Cc3ccc(S(C)(=O)=O)cc3)CC2)n1 | IIIB | Resistant strain (K103N + Y181C) | MTT |  | 0.02 µM
Cc1cc(C)c(Oc2ncc(NC(=O)C(F)(F)F)c(Nc3ccc(C#N)cc3)n2)c(C)c1 | RES056 |  | MTT |  | 31.6 µM
Cc1cn([C@H]2C[C@H](N=[N+]=[N-])[C@@H](CO)O2)c(=O)[nH]c1=O |  |  | cytopathic effect / MTT |  | 0.0011 µM
C=C[C@@]1(CO)CO[C@@H](n2cc(C)c(=O)[nH]c2=O)C1 |  |  |  |  | >100 µg/mL
Cc1cc(C=O)cc(C)c1Oc1ncc(N)c(Nc2ccc(C#N)cc2)n1 | IIIB |  | MTT |  | 0.066 µM
COc1c(O)cc([C@H]2Oc3cc(O)cc(O)c3[C@@H](c3c(O)cc(O)c4c3O[C@H](c3cc(O)c(OC)c(O)c3)[C@H](O)C4)[C@@H]2O)cc1O | IIIB |  | MTT |  | >7.58 µg/mL
CNc1nc(Nc2c(C)cc(C)cc2C)nc(NC2CCN(Cc3ccc(C(N)=O)cc3)CC2)n1 | IIIB |  | MTT |  | 0.00461 µg/mL
COc1ccc(N2CCN(CC(=O)OC[C@@H]3CC[C@H](n4cnc5c(=O)[nH]cnc54)O3)CC2)cc1 | IIIB |  | cytopathic effect / MTT |  | 1.87 µM
O=C1Nc2ccc(Cl)cc2[C@@](C#CC2CC2)(C(F)(F)F)O1 | IIIB |  | MTT |  | 0.0087 µM
N#Cc1ccc(Nc2nc(Oc3c(Cl)cccc3Cl)ncc2NC(=O)C(F)(F)F)cc1 | IIIB |  | MTT |  | 0.141 µM
CNc1nc2c(o1)c(C)nn2-c1ccccc1 |  |  | cytopathic effect / MTT |  | >31 µM
CCCCN(CC)C(=O)Oc1nsnc1-c1c(Cl)cccc1Cl | IIIB |  | cytopathic effect |  | 0.335 µM
Cc1cc(C#N)cc(C)c1Oc1ccc(N)c(NC2CCN(Cc3ccc(C(N)=O)cc3)CC2)n1 | IIIB |  | MTT |  | 0.036 µg/mL
NC(=O)CN1C(=O)N(Cc2ccccc2)c2cscc2S1(=O)=O | IIIB |  | cytopathic effect / MTT |  | >355.7 µM
Cc1cc(Br)cc(C)c1Oc1ncc([N+](=O)[O-])c(Nc2ccc(C#N)cc2)n1 | IIIB |  | MTT |  | 0.0636 µM

The last 2 rows once more:

structure,strain,changes,method,setting,value
NC(=O)CN1C(=O)N(Cc2ccccc2)c2cscc2S1(=O)=O,IIIB,,cytopathic effect / MTT,,>355.7 µM
Cc1cc(Br)cc(C)c1Oc1ncc([N+](=O)[O-])c(Nc2ccc(C#N)cc2)n1,IIIB,,MTT,,0.0636 µM

Blank or dashed fields: not listed here. Neighbouring rows are from separate reports.